Data taken from ChEMBL document CHEMBL3988442, “University of Dundee, Small-Polar-MMV Screening Library” (2021).

A: 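Growth of Mycobacterium tuberculosis over 4 days (cholesterol / DPPC medium with tyloxapol); the read-out is not stated. Concentration: 500 µM. Higher reads as more growth inhibition (inferred: compounds with an IC50 in retests scored well above the rest). About 18,000 compounds were tested under these conditions; 5% (about 900) showed 50% or more at least once.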
B: 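Whole-cell growth test on Mycobacterium tuberculosis, read after 3 days in glucose-containing 7H9 medium; the read-out is not stated. Concentration: 500 µM. Direction is inferred from retests: higher values go with more growth inhibition. Of about 18,000 compounds tested this way, about 1,400 (7.9%) reached 50% or more in at least one test.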

Results are given as percent effect. How 0% and 100% were set is not recorded. Most values in the screen are low, and negative values occur. The entries come from a sample that favours strong results. A dash means the value is not listed here; it may have been measured.

| # | structure | A | B |
|---|---|---|---|
| 1 | `CCCC(N)CNS(=O)(=O)c1ccc(C)cc1F` (centres unmarked) | - | 24.7 |
| 2 | `CCNC(=O)C1CN(c2ccc(S(C)(=O)=O)cc2)C1` | - | 1.725 |
| 3 | `CN(C)C(=O)N1CCCC(C(=O)Nc2ccccn2)C1` (centres unmarked) | - | 30.31 |
| 4 | `NCC1(CO)CC(c2ccccc2)C1` (centres unmarked) | - | 27.04 |
| 5 | `O=C(CCN1CCCC1CO)NCc1ccccc1Cl` (centres unmarked) | 80.07 | 69.31 |
| 6 | `O=S(=O)(CCO)CCc1c(F)cccc1Cl` | - | 17.05 |
| 7 | `NC(=O)C1CCN(CCSc2ccccc2)CC1` | - | 20.96 |
| 8 | `CC1CS(=O)(=O)CCN1CC(=O)N(C)Cc1ccco1` (centres unmarked) | 7.459 | - |
| 9 | `COc1ccc(NC(=O)N2CCN3CCC2CC3)cn1` | - | -161.4 |
| 10 | `N#Cc1cccc(NC(=O)CN2CCCCCC2=O)c1` | - | 8.566 |
| 11 | `CCCS(=O)(=O)Nc1cccc(OCC)n1` | - | 2.924 |
| 12 | `Cc1ccc(C(=O)NCC2(C)CCOCC2)cn1` | - | 30.3 |
| 13 | `Cc1cccc(CCC(=O)OC(C)C(N)=O)c1` (centres unmarked) | - | 27.22 |
| 14 | `COCC(=O)N(C)C1CCCCC1` | - | -2.305 |
| 15 | `COc1cccc(N2CCNCC2=O)c1` | - | -11.25 |
| 16 | `CC(C)(O)Cn1nnc(-c2cccs2)n1` | 64.6 | 68.57 |
| 17 | `N#CC1(NC(=O)CCc2ccc(Cl)s2)CCOCC1` | 56.66 | 69.65 |
| 18 | `CCNCC(O)COc1ccc(C)cc1OC` (centres unmarked) | 18.57 | 75.09 |
| 19 | `Cc1cc(Br)cc(C(=O)OC(C)C(N)=O)c1` (centres unmarked) | -12.85 | -4.594 |
| 20 | `COc1cc(I)c(C(=O)N2CCC2)cc1OC` | - | 17.72 |
| 21 | `Cc1cccc(C(=O)NCC(O)c2cccnc2)n1` (centres unmarked) | -6.701 | 4.267 |
| 22 | `NC(=O)CN1CCC(OCCCc2ccccc2)C1` (centres unmarked) | 75.13 | 73.81 |
| 23 | `COC(=O)c1sccc1NC(=O)CSc1nnc(N)s1` | - | 21.6 |
| 24 | `O=C(Cc1c[nH]c2ccccc12)N1CCCC(CO)C1` (centres unmarked) | -4.952 | - |
| 25 | `O=C(OCCc1ccccc1F)C1CCS(=O)(=O)C1` (centres unmarked) | - | 25.66 |
| 26 | `Cc1cc(C)c(NC(=O)N[C@@H]2CCNC[C@H]2O)c(Cl)c1` | - | 21.29 |
| 27 | `Cn1nccc1CCNc1ccc(F)cn1` | - | 21.84 |
| 28 | `O=C(NCCc1c[nH]cn1)c1ccncc1` | 6.218 | - |
| 29 | `Cc1ccc(CN2CCC(C3CCNC3)CC2)nc1` (centres unmarked) | 0.2653 | - |
| 30 | `CC(C)C[C@H](N)C(=O)NCCN(C)C` | -12.97 | - |
| 31 | `NCC1CCCN(Cc2ccccc2)C1` (centres unmarked) | 3.822 | 15.07 |
| 32 | `Cc1cccc(OCC(O)CNc2ncccc2F)c1` (centres unmarked) | 71.35 | 73.34 |
| 33 | `Cc1cc(C)c(C)c(OCC(=O)N2CCN(C)CC2)c1` | 59.61 | 70.92 |
| 34 | `O=C1CNCN1Cc1ccccc1` | 0.3151 | 2.637 |
| 35 | `CSc1ccc(NC(=O)NCC2(O)CCNC2)cc1` (centres unmarked) | - | 41.72 |
| 36 | `O=S(=O)(NCc1nccs1)N1CCc2ccccc2C1` | 54.9 | 75.93 |
| 37 | `CN(CC(=O)Nc1ccsc1)C(=O)c1ccco1` | 49.84 | - |
| 38 | `CC1CS(=O)(=O)CCN1C(=O)CCCSC(C)(C)C` (centres unmarked) | 3.684 | - |
| 39 | `COc1cccc(CS(=O)(=O)Nc2ccc(C)nc2)c1` | 48.92 | 57.43 |
| 40 | `Cc1cccnc1NC(=O)COc1c(O)ccnc1C` | - | -6.441 |
| 41 | `CCSCC(=O)N(C)Cc1nc(C(C)C)no1` | -4.048 | 16.75 |
| 42 | `CCC1(CO)CCCN(CC(=O)Nc2ccn(C)n2)C1` (centres unmarked) | - | 33.8 |
| 43 | `CCC(O)CN1CCN(CC2CCOCC2)CC1` (centres unmarked) | 3.082 | - |
| 44 | `CCOc1ccc(CC(=O)N(C)[C@H]2COC[C@@H]2O)cc1` | -4.743 | - |
| 45 | `CCCN(CC1CCCO1)C(=O)c1ncc[nH]1` (centres unmarked) | - | 17.53 |

The last 3 entries again:

structure,A,B
CCC(O)CN1CCN(CC2CCOCC2)CC1 (centres unmarked),3.082,-
CCOc1ccc(CC(=O)N(C)[C@H]2COC[C@@H]2O)cc1,-4.743,-
CCCN(CC1CCCO1)C(=O)c1ncc[nH]1 (centres unmarked),-,17.53